Pooled drug test results. Numbers come from NIAID ChemDB, via PubChem.

Shared fields: whole-cell or culture tests; organism: Mycobacterium tuberculosis

Two numbers with a dash give a range or band. Rows are shuffled and stem from different studies. A number after MIC or MFC names an inhibition level or a share of isolates. MIC bound: limit read from a one-dose screen. ECn is the concentration giving n% inhibition of infection, replication or growth. Blank or dashed fields: not listed here. Inhibition is in % at the dose shown (toxicity tests: loss of growth or viability).

SMILES,read-out,setting,dose,strain,read by,changes,cell line,result
COc1ccc(-c2nc3c(=O)n(C)c(=O)nc-3n(C)n2)cc1OC,MIC,,,H37Rv,,,VERO,3.13 µg/mL
CN(Cc1nnc(-c2ccco2)o1)Cc1c(F)cccc1Cl,MIC,,,,fluorescence,,,0.8 µM
Fc1ccc2c(Nc3ccc(N4CCN(c5ccc(C(F)(F)F)cc5)CC4)cc3)ncnc2c1,MIC50,,,H37Rv,luminescence,,,>10 µM
O[C@H](c1cc(C(F)(F)F)nc2c(C(F)(F)F)cccc12)[C@@H]1CCCCN1,MIC,,,H37Rv,resazurin,,,20 µg/mL
FC(F)(F)c1ccc(Oc2ccc(Nc3ncnc4[nH]ccc34)cc2)cc1,MIC50,,,H37Rv,luminescence,,,0.46 µM
CCCCNc1nc(-c2ccc(F)cc2)c(C#N)c(=O)[nH]1,MIC,,,H37Ra,,,,>50 µg/mL
COc1ccc2nc3cc(Cl)ccc3c(Nc3cc(CN4CCCC4)c(O)c(CN4CCCC4)c3)c2n1,MIC,,,NTB1,resazurin,dprE1 G387S,,5–10 µg/mL
CC(=O)C1=C(O)c2c(C)cc(C)nc2S(=O)(=O)N1C,EC50,,,H37Rv,,,,>12.5 µg/mL
CN(C)c1ccc(-c2nc(Nc3ccc(F)cc3)[nH]c(=O)c2C#N)cc1,MIC,,,H37Ra,,,,>50 µg/mL
CN1CCN(c2ccncc2S(=O)(=O)N2CCCC2)CC1,inhibition,,6.25 µg/mL,H37Rv,resazurin,,,-15%
NC[C@H]1O[C@H](O[C@H]2[C@H](O)[C@@H](O[C@H]3O[C@H](CO)[C@@H](O)[C@H](N)[C@H]3O)[C@H](N)C[C@@H]2N)[C@H](O)[C@@H](O)[C@@H]1O,MIC,,,,fluorescence,,,1.7 µM
CCCCN(CCNCCc1ccccc1OC)Cc1ccccc1,MIC,,,,,,,50 µM
CN(C)c1ccc(-c2nc(NC3CCCCCC3)[nH]c(=O)c2C#N)cc1,MIC,,,H37Ra,,,,>50 µg/mL
Cc1nc(NCCc2ccc(C(F)(F)F)cc2)c2ccccc2n1,MIC50,,,H37Rv,luminescence,,,>10 µM
CCOC(=O)/C(N=Nc1ccc(-c2n[nH]c(=S)n2-c2ccccc2)cc1)=C(\C)O,EC50,,,H37Rv,,,,>12.5 µg/mL
CSCCCNC(=O)c1csc(-c2csc(CCNC(=O)[C@H](NSc3ccccc3[N+](=O)[O-])[C@H](C)O)n2)n1,MIC,,,H37Rv,BACTEC,,,≥12.8 µg/mL
CC(=O)NC[C@H]1CN(c2ccc(N3CCOCC3)c(F)c2)C(=O)O1,MIC,,,,fluorescence,,,3.4 µM
CN(C)c1ccc(CCNc2ncnc3ccsc23)cc1,MIC50,,,H37Rv,luminescence,,,>50 µM
COC(=O)C1(C(=O)OC)OC(c2ccccc2)C2C(=O)N(C)C(=O)C21,inhibition,,12.5 µg/mL,H37Rv,BACTEC,,,38%
CC(C)(CO)NCCNCc1ccccc1,MIC,,,,,,,50 µM
CC(C)[C@H](NC(=O)OCc1ccccc1)c1cnc(-c2ccccc2)[nH]1,MIC,14 d,,My 331/88,,,,16 µM
FC(F)(F)c1cccc(CCNc2ncnc3ccsc23)c1,MIC50,,,H37Rv,luminescence,,,>50 µM
CCCCCN1C2=C(Sc3ccccc31)C(=O)OC2,MIC90,,,H37Rv,resazurin,,,>32 µg/mL
Fc1ccc2c(Nc3ccc(N4CCN(c5ccc(C(F)(F)F)cn5)CC4)cc3)ncnc2c1,MIC50,,,H37Rv,luminescence,,,>20 µM
CCN(CC)/N=N/c1nc[nH]c1C(N)=O,MIC bound,,,H37Rv,BACTEC,,,≤12.5 µg/mL
Cc1[nH]n(-c2ccccc2)c(=O)c1N=Nc1ccc(-c2n[nH]c(=S)n2-c2ccccc2)cc1,EC50,,,H37Rv,,,,>12.5 µg/mL
Cc1[nH]c(=O)nc2[nH][nH]c(=O)c12,inhibition,,12.5 µg/mL,H37Rv,BACTEC,,,10%
[C-]#[N+][C@@]1(C)CC[C@H]2[C@H]3[C@@H](C(=C)CC[C@@H]31)[C@H](CC(C)(C)N=C=S)C[C@@H]2C,MIC,,,H37Rv,,,,4 µg/mL
CC(C)CC(C)NCCNCCCCc1ccccc1,MIC,,,,,,,50 µM
NC(N)=NC(N)=Nc1cc2c3ccccc3ccc2c2ccccc12,MIC bound,,,H37Rv,BACTEC,,,<6.25 µg/mL
Cc1ccc(CNCCNC[C@]2(C)CCC[C@]3(C)c4ccc(C(C)C)cc4CC[C@@H]23)cc1,MIC,,,,,,,25 µM
COc1cc(C(=O)O)c2c(c1C)OC(=O)c1c(C)cc(O)c(C=O)c1O2,inhibition,,12.5 µg/mL,H37Rv,BACTEC,,,-2%
CN(C)CCC(O)(c1cccc(F)c1)C1c2ccccc2Sc2ccccc21,MIC90,,,H37Rv,resazurin,,,7 µg/mL
Fc1ccc2c(Nc3ccc(Br)cn3)ncnc2c1,MIC50,,,H37Rv,luminescence,,,>20 µM
COc1ccc(CSC(=S)Nc2ccc(F)c(F)c2)cc1,MIC,,,H37Rv,BACTEC,,,64 µg/mL
CC(C)CC(C)NCCNCCc1ccccc1,MIC,,,,,,,50 µM
FC(F)(F)c1cccc(-c2ccc(Nc3ncnc4ccccc34)cc2)c1,MIC50,,,H37Rv,luminescence,,,>50 µM
C=CCN(CCNCCC(c1ccccc1)c1ccccc1)C1CCCCC1,MIC,,,,,,,25 µM
C[C@H](NC(=O)OCc1ccccc1)c1cnc(-c2ccccc2)[nH]1,MIC,21 d,,My 331/88,,,,125 µM
N#Cc1c(-c2ccc(F)cc2)nc(N2CCc3ccccc3C2)[nH]c1=O,MIC,,,H37Ra,,,,>50 µg/mL
CC1CCc2ccccc2N1Cc1nc(-c2ccsc2)no1,MIC,,,,fluorescence,,,2.2 µM
C[C@@H](NC(=O)OCc1ccccc1)c1cnc(-c2ccccc2)[nH]1,MIC,21 d,,My 331/88,,,,125 µM
COc1ccc2nc(C)cc(Nc3ccc(Oc4ccc(C(F)(F)F)cc4)cc3)c2c1,MIC50,,,H37Rv,luminescence,,,>20 µM
CCCN=Cc1cnc(C#N)c(N)n1,MIC bound,,,H37Rv,BACTEC,,,>12.5 µg/mL
CC(=O)C1=C(O)c2c(C)cc(C)nc2S(=O)(=O)N1,inhibition,,12.5 µg/mL,H37Rv,,,,33%
Cc1cc2c(cc1S(=O)(=O)O)C1C(C3C2C2(Cl)C(Cl)=C(Cl)C3(Cl)C2(Cl)Cl)C2(Cl)C(Cl)C(Cl)C1(Cl)CCC2(Cl)Cl,inhibition,,6.25 µg/mL,H37Rv,resazurin,,,44%
CCOC(=O)/C(N=Nc1ccc(-c2n[nH]c(=S)o2)cc1)=C(\C)O,EC50,,,H37Rv,,,,>12.5 µg/mL
Cc1nc(Nc2ccc(Oc3ccc(OC(F)(F)F)cc3)cc2)c2ccc(F)cc2n1,MIC50,,,H37Rv,luminescence,,,>20 µM
CN(C)c1ccc(-c2nc(NC3CCCCC3)[nH]c(=O)c2C#N)cc1,MIC,,,H37Ra,,,,>50 µg/mL
O=C(N[C@@H](Cc1ccccc1)c1cnc(-c2ccccc2)[nH]1)OCc1ccccc1,MIC,21 d,,My 331/88,,,,>250 µM
Nc1nc(Nc2ccc(Cl)c(Cl)c2)cc(=O)[nH]1,MIC bound,,,H37Rv,BACTEC,,,>12.5 µg/mL
Fc1ccc(N2CCN(c3ccc(Nc4ncnc5ccsc45)cc3)CC2)cc1,MIC50,,,H37Rv,luminescence,,,>20 µM
C[C@@H](NC(=O)OCc1ccccc1)c1cnc(-c2ccc([N+](=O)[O-])cc2)[nH]1,MIC,14 d,,My 331/88,,,,>125 µM
Cc1cc(C)c2c(=O)n(CC(O)CN3CCCCC3)sc2n1,MIC,,,H37Rv,,,,>12.5 µg/mL
Cn1ncc2c(c1=O)Nc1ccccc1S2(=O)=O,MIC bound,,,H37Rv,BACTEC,,,>12.5 µg/mL
CCCCCC(CC(=O)N1N=CCCC1C(=O)N[C@H]1COC(=O)C2C[C@@H](C)CNN2C(=O)[C@H](C)NC(=O)[C@@H](CC(C)C)NC1=O)C(=O)O,MBC,,,246,,,,50 µg/mL
Cc1ccc(NC(=O)NC2c3ccccc3Sc3ccccc32)cc1,MIC90,,,H37Rv,resazurin,,,31 µg/mL
Oc1c(Cl)cc(Cl)cc1-c1c(Cl)cc(Cl)c(Oc2ccc(Cl)cc2Cl)c1O,MIC,,,H37Rv,,,,64 µg/mL
Cc1cc(C)c2c(n1)S(=O)(=O)N(CCO)C2=O,MIC,,,H37Rv,,,,>12.5 µg/mL
FC(F)(F)c1ccc(Oc2ccc(Nc3nccc4ccccc34)cc2)cc1,MIC50,,,H37Rv,luminescence,,,>20 µM
CCCCN1c2ccccc2Sc2ccccc21,MIC90,,,H37Rv,resazurin,,,>32 µg/mL
COc1ccc(CCNCCNCC23CC4CC(CC(C4)C2)C3)cc1,MIC,,,,,,,25 µM
O=C1Nc2cc3c(cc2C(=O)N2C/C(=N\O)CC12)OCO3,inhibition,,12.5 µg/mL,H37Rv,BACTEC,,,4%
[C-]#[N+][C@@]1(C)CC[C@H]2[C@H]3[C@@H](C(=C)CC[C@@H]31)[C@H](C=C(C)C)C[C@@H]2C,MIC,,,H37Rv,,,,8 µg/mL
c1csc(-c2nnc(COc3ccc4c(c3)OCO4)o2)c1,MIC,,,,fluorescence,,,1.5 µM
O=C1C(=Cc2c(O)cc(O)cc2O)C(=O)c2ccccc21,inhibition,,12.5 µg/mL,H37Rv,BACTEC,,,33%
c1ccc(CNCCN[C@H]2C[C@@H]3CC[C@H]2C3)cc1,MIC,,,,,,,50 µM
c1ccc2c(Nc3ccc(N4CCCCC4)cc3)ncnc2c1,MIC50,,,H37Rv,luminescence,,,>50 µM
Cc1ccc(-c2nc(NCc3ccccc3)[nH]c(=O)c2C#N)cc1,MIC,,,H37Ra,,,,>50 µg/mL
CC(C)(O)C1=CC[C@@]2(C)C[C@@H]3O[C@]3(C)CC[C@@H]3O[C@@]3(C)CC[C@H]12,MIC,,,H37Rv,,,,>128 µg/mL
COc1ccc2c(c1)[n+]([O-])c(C(N)=O)c(N)[n+]2[O-],MIC,,,H37Rv,BACTEC,,,3.13 µg/mL
Fc1ccc(-c2nnc(CSc3nnc(-c4ccco4)o3)o2)cc1,inhibition,,20 µM,,fluorescence,,,82%
CO[C@H]1/C=C/O[C@@]2(C)Oc3c(C)c(O)c4c(O)c(c(/C=N/N5CCN(C)CC5)c(O)c4c3C2=O)NC(=O)/C(C)=C\C=C\[C@H](C)[C@H](O)[C@@H](C)[C@@H](O)[C@@H](C)[C@H](OC(C)=O)[C@@H]1C,MIC,,,H37Rv,resazurin,,,0.0039 µM
NC(N)=NS(=O)(=O)c1ccc(N=NC2=C(O)C(c3ccccc3)N(c3ccccc3)C2=O)cc1,MIC,,,H37Rv,BACTEC,,,≥12.5 µg/mL
Cc1[nH][nH]c(=O)c1N=Nc1ccc(-c2n[nH]c(=S)o2)cc1,inhibition,,12.5 µg/mL,H37Rv,,,,0%
CNC(=O)OCC1=CC(=O)C=C(OC)C1=O,inhibition,,12.8 µg/mL,H37Rv,BACTEC,,,0%
Cc1ccc(-c2nc(N3CCOCC3)[nH]c(=O)c2C#N)cc1,MIC,,,H37Ra,,,,>50 µg/mL
FC(F)(F)c1ccc(Oc2ccccc2Nc2ncnc3ccccc23)cc1,MIC50,,,H37Rv,luminescence,,,>50 µM
C=C1C[C@H](O)[C@H](Br)C(C)(C)[C@]12CC=C(C)CC2,MIC,,,H37Rv,,,,32 µg/mL
O=C(NNC(=O)C12CC3CC(CC(C3)C1)C2)C12CC3CC(CC(C3)C1)C2,MIC bound,,,H37Rv,BACTEC,,,>12.5 µg/mL
FC(F)(F)c1ccc(Oc2ccc(Nc3ncnc4cccnc34)cc2)cc1,MIC50,,,H37Rv,luminescence,,,>10 µM
COc1ccc(-c2nc(N3CCN(C)CC3)[nH]c(=O)c2C#N)cc1,MIC,,,H37Ra,,,,>50 µg/mL
COc1ccccc1CCNCCNCCNc1ccccc1,MIC,,,,,,,50 µM
CCC[C@@H](O)C1=C(Br)/C(=C/Br)OC1=O,MIC,,,H37Rv,,,,>128 µg/mL
c1ccc2c(Nc3ccc(NCCN4CCOCC4)cc3)ncnc2c1,MIC50,,,H37Rv,luminescence,,,>10 µM
Nc1cccc2c1C(=O)c1cccc(NC(=O)c3ccc4c5c(nsc35)-c3ccccc3C4=O)c1C2=O,inhibition,,12.5 µg/mL,H37Rv,BACTEC,,,8%
NNC(=O)c1ccncc1,MIC,,,9133,,,,≥0.2 µg/mL
C=CCn1c(-c2ccc(N=N/C(C(=O)OCC)=C(/C)O)cc2)n[nH]c1=S,EC50,,,H37Rv,,,,>12.5 µg/mL
CC[C@H]1OC(=O)[C@H](C)[C@@H](O[C@H]2C[C@@](C)(OC)[C@@H](O)[C@H](C)O2)[C@H](C)[C@@H](O[C@@H]2O[C@H](C)C[C@H](N(C)C)[C@H]2O)[C@](C)(OC)C[C@@H](C)C(=O)[C@H](C)[C@@H](O)[C@]1(C)O,MIC,,,MC8,,,,>4 µg/mL
Cc1cc(C)c2c(=O)n(CC(O)CN3CCC(Cc4ccccc4)CC3)sc2n1,MIC,,,H37Rv,,,,<12.5 µg/mL

For reference, 5 entries again:

SMILES | read-out | setting | dose | strain | read by | changes | cell line | result
Cc1cc(C)c2c(=O)n(CC(O)CN3CCCCC3)sc2n1 | MIC |  |  | H37Rv |  |  |  | >12.5 µg/mL
COc1ccc2c(c1)[n+]([O-])c(C(N)=O)c(N)[n+]2[O-] | MIC |  |  | H37Rv | BACTEC |  |  | 3.13 µg/mL
c1ccc2c(Nc3ccc(NCCN4CCOCC4)cc3)ncnc2c1 | MIC50 |  |  | H37Rv | luminescence |  |  | >10 µM
CCCCNc1nc(-c2ccc(F)cc2)c(C#N)c(=O)[nH]1 | MIC |  |  | H37Ra |  |  |  | >50 µg/mL
CC(C)CC(C)NCCNCCc1ccccc1 | MIC |  |  |  |  |  |  | 50 µM